Experimental data taken from the supplement of paper PMC9931576.
Human monoclonal antibodies against the spike receptor-binding domain (heavy:light variable regions). IC50 against pseudoviruses bearing the spike of naturally observed variants; lower = stronger; >10 µg/ml means not reached at the top dose. No active / inactive call. The stated detection limit is 0.0005 µg/ml; values near or below 0.001 µg/ml lie at the floor of the assay.

B1: BD56-1763 (protein)
chain 1: QLQLRESGPGLVKPSETLSLTCSVSAGSISSSIYYWGWIRQPPGKGLEWIVSIHYSGSTYNNPSLKSRVTISVDTSKNQLSLKLSSVTAADTAVYYCARHGVARFGNLPFFDYWGQGSLVTVSS
chain 2: SSVLTQPPSVSVAPGKTARITCGGNNIGSKSVHWYQQKPGQAPVLVMYYDSDRPSGIPERFSGSNSGNTATLTINRVEAGDEADYYCQVWDSSSDVVFGGGTKLTVL
B2: BD56-1770 (protein)
chain 1: QVQLVQSGTEVKNPGSSVKVSCKASGDTFSRFAINWVRQAPGQGPEWMGRIIPMFGMTNYAQKFQGTVSITADKSTSTAYMEVSGLRSEDTAVYYCATSAFYYGSRGYYLDSWGQGTLVTVSS
chain 2: EIVLTQSPGTLSLSPGERTTLSCRASQNVSSNYIAWYQQKPGQAPRLLIYGASNRATGIPARFSGSGSGTDFTLTISRLEPEDFAVYYCYQYHNSPRTFGQGTRVEIK
B3: BD56-1765 (protein)
chain 1: QVQLVQSGAEVRKPGSSVKVSCKASGGTFSSYTFTWVRQAPGQGLEWMGRIIPILDISNYAQEFQGRVTITADKLSNTVYMELPSLISKDTAVYYCARERNAGHSSGSNYYFDPWGPGTLVTVSS
chain 2: QSVLTQPPSVSGAPGQRVTIPCTGSNSNIGAGYEVHWYQQLPGMSPKLLIYGDSNRPSGVPDRFSGSKSGTSASLAISGLQGEDEADYYCQSYDSGLSDSVFGGGTKLTVL
B4: BD56-1768 (protein)
chain 1: QVQLVQSGAEVKKPGSSVKVSCKPSGGTFSYTINWVRQAPGQGLEWMGGIITLLGVANYAQNFQGRVTITADKSSSTAYMELTSLRSEDTAVYYCAREWPNCSSTSCYRWWGQGTLVTVSS
chain 2: QSVLTQPPSVSGAPGQRVTISCTGSNSNIGAGYDVHWYQQLPGTAPKLLIYGNSNRPSGVPDRFSGSKSGTSASLAITGLQAEDEADYYCQSYDSSLSGSVFGGGTKLTVL
B5: BD56-1750 (protein)
chain 1: EVQLVASGGGLVQPGGSLRLSCAASGFTFSSYDMHWVRQATGKGLEWVSVIGTAGDTYYEDSVKGRFTISREDAKNALSLQMNSLRAGDTAVYYCTRGTFDSGNFVSWFDPWGQGTLVTVSS
chain 2: DIQMTQSPSSLSASVGDRVTISCRASQSIRNYLNWYQQKPGKAPKLLIYSASNLQSGVPSRFSGVGSGTDFTLTIRSLQPEDIATYYCQQSYNIPPWTFGQGTKVEIK
B6: BD56-1772 (protein)
chain 1: QVQLVQSGAEVKRPGSSVKVSCKASGGTFSSYPITWVRQAPGLGPEWMGSIIPILGAGDYAQSLQGRVTITADKSTGTAFMELSSLRSADTAVYYCALARGYSASGSSYYFDNWGQGTLVTVSS
chain 2: QSVLTQPPSVSGAPGQRVTISCTGSSSNIGAGYDVHWYQQLPGAAPKLLIYANTNRPSGVPDRFSGSKSGTSASLAITGLQAEDEADYYCQSYDSSLSGSVFGGGTKLAVL
B7: BD56-1754 (protein)
chain 1: QVQLVQSGAEVKKPGSSVKVSCSASGDTFTRYAINWVRQAPGQGPEWMGRIIPMFGMSNYAQKFQGRVTMTADKSTRTAYMELNSLRNEDTAVFYCATSAYFSDSDGFYFEYWGRGTLVTVSS
chain 2: EIVLTQSPGTLSLSPGERATLSCRASETVDGNYLAWYQQKPGQAPRLLIYGASIRATGIPDRFSGSGSGTDFSLTISRLEPEDFAVYYCQQYAYSPRAFGQGTKVEIK
B8: COV2-2678 (protein)
chain 1: EVQLVESGGGVVRPGGSLRLSCAASGFIFDDYDMTWVRQAPGKGLEWVSGISWNGGNTGYADSVKGRFTISRDNAKNSLYLQMNSLRAEDTALYHCAVIMSPIPRYSGYDWAGGAFDIWGQGTMVTVSS
chain 2: SSELTQDPAVSVALGQTVRITCQGDSLRSYYASWYQQKPGQVPILVIYDKNNRPSGIPDRFSGSSSGNTASLTITGAQAEDEADYYCNSRDSSGNAVVFGGGTKLTVL
B9: BD56-1760 (protein)
chain 1: QVQLQESGPGLVKPSQTLSLTCTVSGGSISSGGYYWSWVRQLPGKGLEWIGYIFYSGINYYNPSLKSRVTMSVDTSKNQFSLNLTSVTAADTAVYYCARDSSGGDDAFDIWGQGTLVTVSS
chain 2: DIQMTQSPSSLSASMGDRVTITCRASQDINNYLAWFQQKPGKAPKSLIYAASRLRSGVPSKFSGSGSGTDFTLTISSLQPEDFATYYCQQYNTYPYTFGQGTRLEIK
B10: BD56-1757 (protein)
chain 1: QITLKESGPTLVKPTQTLTLTCTFSGISLSTRAVGVGWIRQPPGKALEWLALIYWDDDKRYSPSLKSRLTITRDTSKKQVVLTMTNMDPMDTATYYCAHRLPGVPMGWFDPWGPGTLVTVSS
chain 2: SYVLTQPPSVSVAPGKTAMITCGGDSIGSKSVHWYRQKPGQAPVLVMYYDSERPSGIPERFSGSNSGPNPGETATLTISRVEAGDEADYYCQVWDIASDHPVFGGGTKLTVL
B11: BD56-1762 (protein)
chain 1: EVQLVESGGGLVQTGRSLRLSCTASGFPFDDYAIHWVRQAPGKGLEWVSGISWNGGVIGYADSLKGRCIISRDNAKNSLYLQMYSLRPEDTALYYCVKDMSGGDHQYYFDYWGQGTLVTVSS
chain 2: SYVLTQAPSVSVAPGETARITCGGNSIGSKSVHWYQQRPGQAPVLVVYDDNDRPSGIPERFSGSNSGNTATLTISRVEAGDEADYYCQVWDRSSDLYVFGTGTKVTVL
B12: BD56-1755 (protein)
chain 1: EVQLLESGGGLVQPGGSLRLSCEASGFSFSSSVMNWVRQAPGEGLEWVSSITGTGGSTFYADSVKGRFTVSRDNSRNTLYLQMNSLRAGDTAVYFCARDQGFLEWLLTDYFYDYHMDVWGKGTTVTVSS
chain 2: DVVMTQSPLSLSVTLGQPASISCRSSQSLVHSDGNTYLNWFQQRPGQSPRRLIYKVSNRDSGVPDRFSGSGSGTDFTLKVSRVEAEDVGVYYCMQGTHWPPAFGQGTKVEIK

What follows are binders tested against SARS-CoV-2 Omicron BA.1 spike pseudovirus (assay: pseudovirus neutralization IC50; higher = weaker neutralization).
Description: (§1)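 Single-round VSV luciferase pseudovirus mixed with antibody dilutions for 1 h and put on Huh-7 cells for about a day; IC50 from the dose curve.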

| Binder | pseudovirus neutralization IC50 |
| --- | --- |
| B1 | 0.0818 µg/mL |
| B2 | 0.144 µg/mL |
| B3 | 0.0575 µg/mL |
| B4 | 0.0352 µg/mL |
| B5 | > 10 µg/mL |
| B6 | 0.089 µg/mL |
| B7 | 0.000889 µg/mL |
| B8 | > 10 µg/mL |
| B9 | 0.891 µg/mL |
| B10 | 0.523 µg/mL |
| B11 | 0.0103 µg/mL |
| B12 | 2.38 µg/mL |

The binders below were run against SARS-CoV-2 Omicron BA.2 spike pseudovirus in the same assay as above.
Description: as §1

| Binder | pseudovirus neutralization IC50 |
| --- | --- |
| B1 | 0.102 µg/mL |
| B2 | 0.129 µg/mL |
| B3 | 0.0312 µg/mL |
| B4 | 0.0262 µg/mL |
| B5 | > 10 µg/mL |
| B6 | 0.0399 µg/mL |
| B7 | 0.00187 µg/mL |
| B8 | > 10 µg/mL |
| B9 | 1.35 µg/mL |
| B10 | 0.94 µg/mL |
| B11 | 0.00934 µg/mL |
| B12 | 2.19 µg/mL |

These binders were tested against SARS-CoV-2 Omicron BA.2.75 spike pseudovirus in the same assay as above.
Description: as §1

| Binder | pseudovirus neutralization IC50 |
| --- | --- |
| B1 | 0.0675 µg/mL |
| B2 | 0.00279 µg/mL |
| B3 | 0.027 µg/mL |
| B4 | 0.022 µg/mL |
| B5 | > 10 µg/mL |
| B6 | 0.0805 µg/mL |
| B7 | 0.000725 µg/mL |
| B8 | > 10 µg/mL |
| B9 | 1.49 µg/mL |
| B10 | 0.409 µg/mL |
| B11 | 0.00436 µg/mL |
| B12 | 3.18 µg/mL |

What follows are binders tested against SARS-CoV-2 Omicron BA.5 spike pseudovirus in the same assay as above.
Description: as §1

| Binder | pseudovirus neutralization IC50 |
| --- | --- |
| B1 | > 10 µg/mL |
| B2 | > 10 µg/mL |
| B3 | > 10 µg/mL |
| B4 | > 10 µg/mL |
| B5 | > 10 µg/mL |
| B6 | 0.464 µg/mL |
| B7 | 2.87 µg/mL |
| B8 | > 10 µg/mL |
| B9 | 6.41 µg/mL |
| B10 | > 10 µg/mL |
| B11 | 0.063 µg/mL |
| B12 | 4.94 µg/mL |

Each binder was assayed against SARS-CoV-2 Omicron BQ.1.1 spike pseudovirus in the same assay as above.
Description: as §1

| Binder | pseudovirus neutralization IC50 |
| --- | --- |
| B1 | > 10 µg/mL |
| B2 | > 10 µg/mL |
| B3 | > 10 µg/mL |
| B4 | > 10 µg/mL |
| B5 | > 10 µg/mL |
| B6 | 1.28 µg/mL |
| B7 | > 10 µg/mL |
| B8 | > 10 µg/mL |
| B9 | > 10 µg/mL |
| B10 | > 10 µg/mL |
| B11 | > 10 µg/mL |
| B12 | 6.31 µg/mL |

Each binder was assayed against SARS-CoV-2 Omicron XBB spike pseudovirus in the same assay as above.
Description: as §1

| Binder | pseudovirus neutralization IC50 |
| --- | --- |
| B1 | > 10 µg/mL |
| B2 | > 10 µg/mL |
| B3 | > 10 µg/mL |
| B4 | 1.58 µg/mL |
| B5 | > 10 µg/mL |
| B6 | 1.08 µg/mL |
| B7 | > 10 µg/mL |
| B8 | > 10 µg/mL |
| B9 | > 10 µg/mL |
| B10 | 1.56 µg/mL |
| B11 | 2.44 µg/mL |
| B12 | 3.24 µg/mL |

These binders were tested against SARS-CoV-2 early D614G spike pseudovirus in the same assay as above.
Description: as §1

| Binder | pseudovirus neutralization IC50 |
| --- | --- |
| B1 | 0.116 µg/mL |
| B2 | 0.00294 µg/mL |
| B3 | 0.241 µg/mL |
| B4 | 0.139 µg/mL |
| B5 | > 10 µg/mL |
| B6 | 0.366 µg/mL |
| B7 | 0.000613 µg/mL |
| B8 | 0.424 µg/mL |
| B9 | 0.602 µg/mL |
| B10 | 1.08 µg/mL |
| B11 | 0.0117 µg/mL |
| B12 | 1.21 µg/mL |
